Anti-infective test results gathered from many reports (values: NIAID ChemDB through PubChem).

All rows: growth or infection tests; organism: HIV-1; read-out: EC50

An empty or dashed field is not shown. ECn: concentration that inhibits the pathogen or its effect by n%. Lines come from different laboratories, so protocols vary.

SMILES | method | changes | strain | cell line | conditions | value
Nc1ccn([C@H]2CC[C@@H](CO)O2)c(=O)n1 | plaque count | - | HXB2 | HT4 + HT4 LacZ-1 | - | 0.24 µM
Cc1cn([C@H]2C[C@H](N=[N+]=[N-])[C@@H](CO)O2)c(=O)[nH]c1=O | cytopathic effect / MTS | - | NL4-3 | MT-4 | - | 0.0052 µM
C#C[C@]1(CO)O[C@@H](n2cnc3c(N)nc(F)nc32)C[C@@H]1O | fluorescence | T165A/M184V | Clinical isolate | MT4-GFP | - | 0.01378 µM
COC(=O)N[C@H](C(=O)N[C@@H](Cc1ccccc1)[C@@H](O)CN(Cc1ccc(-c2ccccn2)cc1)NC(=O)[C@@H](NC(=O)OC)C(C)(C)C)C(C)(C)C | p24 / ELISA | D437N L441P | IIIB | MT-2 | - | 0.0011 µM
Nc1nc(=O)n([C@@H]2CS[C@H](CO)O2)cc1F | plaque count | RT-M41L Y181C M184V T215Y | RTMN(181 184) (RT M41L Y181C M184V T215Y) | HT4 + HT4 LacZ-1 | - | >500 µM
Nc1nc(=O)n([C@@H]2CS[C@H](CO)O2)cc1F | recombinant virus assay | K65R/Y181C/G190S | Clinical isolate | MT-2 | - | 1.677 µM
Cc1cn([C@H]2C[C@H](N=[N+]=[N-])[C@@H](CO)O2)c(=O)[nH]c1=O | antigen | - | IIIB/LAI | MT-4 | - | 0.017 µM
Cc1ccnc2c1NC(=O)c1cccnc1N2C1CC1 | cytopathic effect / XTT | RT-V179D | NL4-3 (RT V179D) | CEM + CEM-SS | - | 0.03 µM
Cc1c(C#N)cc(C(F)F)cc1Oc1c(C(F)(F)C(F)F)ncn(Cc2cc(F)c[nH]c2=O)c1=O | RT activity / fluorescence | - | - | - | - | 0.024 µM
Cc1ccnc2c1NC(=O)c1cccnc1N2C1CC1 | plaque count | RT-L74V Y181C T215Y | HIVRTMF (RT L74V Y181C) | HT4 + HT4 LacZ-1 | - | 3.2 µM
Cn1c2ccccc2c2c1cc(C#N)c(=O)n2-c1ccc([N+](=O)[O-])cc1 | luciferase | RT-Y181C | NNRTI-resistant | HeLa | - | 0.0322 µM
Cc1cn([C@@H]2O[C@H](CO[Si](C)(C)C(C)(C)C)[C@@]3(OS(=O)(=O)C=C3N)[C@H]2O[Si](C)(C)C(C)(C)C)c(=O)[nH]c1=O | cytopathic effect / XTT | RT-Y181C | UC781-R (RT-Y181C) | CEM + CEM-SS | - | >10 µM
CC(C)OC(=O)OCOP(=O)(CO[C@H](C)Cn1cnc2c(N)ncnc21)OCOC(=O)OC(C)C | GFP | M184V | NL4-3 | TZM-gfp | - | 0.57 µM
CN1N=C(N)c2cn([C@@H]3O[C@H](COP(=O)(O)O)[C@@H](O)[C@H]3O)c3ncnc1c23 | XTT | - | MN | CEM + CEM-SS | - | 0.02 µM
CC[C@H](C)[C@@H](C(=O)O)n1sc2ccccc2c1=O | p24 / RT activity | - | PR-L10R M46I L63P V82T I84V | MT-4 | - | 2.2 µM
Cc1cccc(C)c1OCC(=O)N[C@@H](Cc1ccccc1)[C@@H](O)C[C@H](Cc1ccccc1)NC(=O)[C@H](C(C)C)N1CCCNC1=O | p24 / luminescence | - | 92UG037 | PBMC | - | 0.12 µM
Cc1ccnc2c1NC(=O)c1cccnc1N2C1CC1 | XTT | RT-D67N K70R L100I T215Y K219Q | NL4-3(RT-4XAZT+L100I) | CEM + CEM-SS | - | 0.03 µM
CC(C)=CCN1c2cc(Cl)cc3[nH]c(=S)n(c23)C[C@@H]1C | - | RT-M41L T215Y K101E | - | MT-4 | - | <1.5 µM
CCN(c1nc(F)ccc1NC(C)(C)C)C1CCN(C(=O)c2cc3cc(NC(=O)N4CCN(C)CC4)ccc3[nH]2)CC1 | ATP | 8374-P62 GS-8374-resistant | IIIB | MT-2 | - | 0.019 µM
CC(C)CN(C[C@@H](O)[C@H](Cc1ccc(F)cc1)NC(=O)O[C@H]1CCO[C@H]2OCC[C@H]21)S(=O)(=O)c1ccc2nc(NC(C)C)sc2c1 | p24 / luminescence | L10I K14R L33I M36I M46I F53I K55R I62V L63P A71V G73S V82A L90M I93L | Clinical isolate | PBMC | clinical isolate, multidrug-resistant | 0.0032 µM
O=c1[nH]cnc2c1ncn2[C@H]1CC[C@@H](CO)O1 | luciferase | RT-M41L S68N G112S M184V | Recombinant | HeLa | - | 3.69 µM
S=C(NCCc1cccs1)Nc1ccc(Br)cn1 | plaque count | RT-M41L T215Y | P798-1 Clinical isolate NRTI-resistant | HT4 + HeLa | - | 0.071 µM
CCc1c(C(=O)c2cc(C)cc(C)c2)n(CC2CC=CC2)c(=O)[nH]c1=O | cytopathic effect / XTT | Y188C | NL4-3 | CEM + CEM-SS | - | 0.06 µM
Cc1cn([C@H]2C=C[C@@H](CO)O2)c(=O)[nH]c1=O | recombinant virus assay | K103N/M184V | Clinical isolate | MT-2 | - | 0.336 µM
CCCc1cc(=O)oc2c3c(c4c(c12)OC(C)(C)C=C4)O[C@@H](C)[C@H](C)[C@@H]3O | XTT | RT-D67N K70R L100I T215Y K219Q | NL4-3(RT-4XAZT+L100I) | CEM + CEM-SS | - | 3 µM
CC(=O)N1CCC(C(=O)N(CCCN2CCC(Cc3ccc(C(N)=O)cc3)CC2)c2ccc(C)c(Cl)c2)CC1 | luciferase | - | R5X4 subtype B_3 recombinant | U87 (CD4+ CXCR4+) + U87 | - | >19 µM
C/C=C/CSc1cc(NC(=S)c2ccsc2C)ccc1Cl | cytopathic effect / XTT | RT-Y181C | E BPTU-resistant (RT Y181C) | CEM + CEM-SS | - | >2 µM
CCCc1cc(=O)oc2c3c(c4c(c12)OC(C)(C)C=C4)O[C@H](C)[C@@H](C)[C@@H]3O | XTT | RT-D67N K70R L100I T215Y K219Q | NL4-3(RT-4XAZT+L100I) | CEM + CEM-SS | - | 1.5 µM
N#Cc1cc2[nH]c3ccccc3c2n(-c2ccc([N+](=O)[O-])cc2)c1=O | luciferase | RT-K103N V108I | NNRTI-resistant | HeLa | - | 0.19 µM
Cc1cc(=O)c2ccc(N=C=S)cc2o1 | p24 / ELISA | - | 89.6 | PBMC | - | 0.164 µM
CCOP(=O)(COc1ccc(C[C@H](NC(=O)O[C@H]2CO[C@H]3OCC[C@H]32)[C@H](O)CN(CC(C)C)S(=O)(=O)c2ccc(OC)cc2)cc1)OCC | ATP | 8374-P362 GS-8374-resistant | IIIB | MT-2 | - | 0.0725 µM
CC(C)[C@H](NC(=O)c1ccc2ccccc2n1)C(=O)N[C@@H](Cc1ccccc1)[C@H](O)CN1CC[C@@H](OCc2ccncc2)C[C@H]1C(=O)NC(C)(C)C | p24 / ELISA / antigen | - | VR1372 | PBMC | - | 0.004 µM
C1CNCCNCCCN(CCCN2CCCNCCNCCCNCC2)CCNC1 | cytopathic effect / MTS | - | RF | MT-4 | - | 0.497 µM
Cc1cn([C@H]2C[C@H](N=[N+]=[N-])[C@@H](CO)O2)c(=O)[nH]c1=O | plaque count | - | HXB2-D (RT-WT | HT4 + HT4-6C | - | 0.005 µM
Cc1occc1C(=S)Nc1ccc(Cl)c(/C=N/OC(C)(C)C)c1 | cytopathic effect / XTT | - | WEJO | PBMC | - | 0.2 µM
Cc1cn([C@H]2C[C@H](N=[N+]=[N-])[C@@H](CO)O2)c(=O)[nH]c1=O | RT activity | - | ROJO(SI) | PBMC | - | 0.1 µM
Cc1ccnc2c1NC(=O)c1cccnc1N2C1CC1 | β-galactosidase | RT-V108I | NNRTI-resistant (RT V108I) | MAGI | - | 0.29 µM

A second listing of 5 rows from above:

SMILES,method,changes,strain,cell line,conditions,value
N#Cc1cc2[nH]c3ccccc3c2n(-c2ccc([N+](=O)[O-])cc2)c1=O,luciferase,RT-K103N V108I,NNRTI-resistant,HeLa,-,0.19 µM
Cn1c2ccccc2c2c1cc(C#N)c(=O)n2-c1ccc([N+](=O)[O-])cc1,luciferase,RT-Y181C,NNRTI-resistant,HeLa,-,0.0322 µM
C1CNCCNCCCN(CCCN2CCCNCCNCCCNCC2)CCNC1,cytopathic effect / MTS,-,RF,MT-4,-,0.497 µM
CC(C)=CCN1c2cc(Cl)cc3[nH]c(=S)n(c23)C[C@@H]1C,-,RT-M41L T215Y K101E,-,MT-4,-,<1.5 µM
Cc1cn([C@H]2C[C@H](N=[N+]=[N-])[C@@H](CO)O2)c(=O)[nH]c1=O,antigen,-,IIIB/LAI,MT-4,-,0.017 µM